Measured values taken from patent US5364842A (priority 1993, dated 1994).

Chains of the proteins cited; added tags and fusions are not shown.
UniProt Q02294, whole entry, looked up: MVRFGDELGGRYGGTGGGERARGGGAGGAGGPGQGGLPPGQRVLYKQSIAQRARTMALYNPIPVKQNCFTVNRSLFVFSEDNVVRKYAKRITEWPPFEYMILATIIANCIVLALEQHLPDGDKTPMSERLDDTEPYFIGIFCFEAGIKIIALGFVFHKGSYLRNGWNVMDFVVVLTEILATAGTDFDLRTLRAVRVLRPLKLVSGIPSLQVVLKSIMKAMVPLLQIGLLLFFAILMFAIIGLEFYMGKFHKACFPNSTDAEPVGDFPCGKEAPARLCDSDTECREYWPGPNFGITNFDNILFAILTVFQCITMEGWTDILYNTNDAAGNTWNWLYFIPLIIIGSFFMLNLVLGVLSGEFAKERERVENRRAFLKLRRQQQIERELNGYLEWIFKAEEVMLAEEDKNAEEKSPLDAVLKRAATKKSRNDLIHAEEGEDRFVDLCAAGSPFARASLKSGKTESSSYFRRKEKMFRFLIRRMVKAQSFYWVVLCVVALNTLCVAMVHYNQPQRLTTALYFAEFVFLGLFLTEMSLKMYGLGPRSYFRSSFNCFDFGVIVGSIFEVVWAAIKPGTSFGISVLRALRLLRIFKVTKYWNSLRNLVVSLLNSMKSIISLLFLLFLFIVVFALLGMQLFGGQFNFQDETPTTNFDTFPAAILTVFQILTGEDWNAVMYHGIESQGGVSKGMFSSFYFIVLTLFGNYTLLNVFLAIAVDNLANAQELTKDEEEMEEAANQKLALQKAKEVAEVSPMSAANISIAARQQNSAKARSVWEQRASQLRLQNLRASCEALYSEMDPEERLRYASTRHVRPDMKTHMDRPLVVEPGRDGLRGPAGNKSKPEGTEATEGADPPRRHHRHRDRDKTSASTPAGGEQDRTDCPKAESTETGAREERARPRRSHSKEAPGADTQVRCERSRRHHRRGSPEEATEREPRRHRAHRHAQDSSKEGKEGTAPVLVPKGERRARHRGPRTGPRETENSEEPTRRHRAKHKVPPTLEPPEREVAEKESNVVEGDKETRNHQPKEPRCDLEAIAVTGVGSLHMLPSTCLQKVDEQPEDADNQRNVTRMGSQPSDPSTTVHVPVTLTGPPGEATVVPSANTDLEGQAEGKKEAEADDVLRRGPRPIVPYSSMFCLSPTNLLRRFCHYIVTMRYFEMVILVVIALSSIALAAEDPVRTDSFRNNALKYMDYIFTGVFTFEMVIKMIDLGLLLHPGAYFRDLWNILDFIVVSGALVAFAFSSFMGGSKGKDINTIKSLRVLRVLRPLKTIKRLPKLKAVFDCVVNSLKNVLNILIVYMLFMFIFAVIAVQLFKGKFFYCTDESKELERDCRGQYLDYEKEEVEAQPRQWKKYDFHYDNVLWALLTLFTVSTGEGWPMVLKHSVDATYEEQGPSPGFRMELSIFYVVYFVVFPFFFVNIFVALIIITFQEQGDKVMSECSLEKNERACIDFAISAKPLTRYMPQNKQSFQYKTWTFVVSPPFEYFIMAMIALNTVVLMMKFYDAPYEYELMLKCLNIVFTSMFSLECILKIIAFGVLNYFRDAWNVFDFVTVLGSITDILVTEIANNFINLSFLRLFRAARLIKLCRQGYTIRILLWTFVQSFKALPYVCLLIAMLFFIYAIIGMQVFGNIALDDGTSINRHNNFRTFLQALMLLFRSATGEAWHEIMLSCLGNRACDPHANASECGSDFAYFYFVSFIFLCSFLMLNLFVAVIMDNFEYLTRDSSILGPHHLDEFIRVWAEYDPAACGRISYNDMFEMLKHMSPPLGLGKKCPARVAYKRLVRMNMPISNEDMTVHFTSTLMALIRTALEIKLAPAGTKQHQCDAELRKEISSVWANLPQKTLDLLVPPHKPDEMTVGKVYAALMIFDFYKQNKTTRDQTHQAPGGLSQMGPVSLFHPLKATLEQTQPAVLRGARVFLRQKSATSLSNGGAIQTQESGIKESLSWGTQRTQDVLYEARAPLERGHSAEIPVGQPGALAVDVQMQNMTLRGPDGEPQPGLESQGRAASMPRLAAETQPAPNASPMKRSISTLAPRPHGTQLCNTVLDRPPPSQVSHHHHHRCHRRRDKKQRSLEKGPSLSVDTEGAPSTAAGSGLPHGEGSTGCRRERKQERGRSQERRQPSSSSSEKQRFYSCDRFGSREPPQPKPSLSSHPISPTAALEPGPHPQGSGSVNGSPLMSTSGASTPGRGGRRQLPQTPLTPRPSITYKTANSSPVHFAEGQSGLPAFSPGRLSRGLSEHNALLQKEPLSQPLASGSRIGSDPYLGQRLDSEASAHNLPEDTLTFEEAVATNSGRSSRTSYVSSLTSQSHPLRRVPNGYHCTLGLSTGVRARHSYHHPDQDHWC

Target: MVIIA (SNX-111) binding site (site 1) (Rattus norvegicus, UniProt Q02294)
Conditions: read-out: IC50 (nM), competition of 125I-MVIIA (SNX-111) binding; rat brain synaptosomal membranes

CSCC[C@@H]1NC(=O)[C@H]([C@@H](C)O)NC(=O)[C@H](CCCCN)NC(=O)[C@H](CCCNC(=N)N)NC(=O)[C@@H]2CSSC[C@@H]3NC(=O)[C@H](CO)NC(=O)CNC(=O)[C@H](CO)NC(=O)[C@H](CSSC[C@H](N)C(=O)N[C@@H](CCCCN)C(=O)NCC(=O)N[C@@H](CCCCN)C(=O)NCC(=O)N[C@@H](C)C(=O)N4C[C@H](O)C[C@H]4C(=O)N2)NC(=O)[C@H](CSSC[C@@H](C(N)=O)NC(=O)[C@H](CCCCN)NC(=O)CNC(=O)[C@H](CCCNC(=N)N)NC(=O)[C@H](CCCNC(=N)N)NC(=O)CNC3=O)NC(=O)[C@H](CC(=O)O)NC(=O)[C@H](Cc2ccc(O)cc2)NC1=O
IC50: 0.153 nM
